Results as given in article PMC6504579 (Journal of immunology (Baltimore, Md. : 1950), 2019).

Format: in vitro ADME, human
Settings: HLA-B57+ CD4 T cell extracts, one representative experiment

Structure (SMILES): CC[C@H](C)[C@H](NC(=O)[C@@H](NC(=O)[C@H](CCC(=O)O)NC(=O)[C@@H]1CCCN1C(=O)[C@H](CO)NC(=O)[C@H](Cc1ccccc1)NC(=O)[C@H](C)NC(=O)[C@H](CCCCN)NC(=O)[C@H](CCC(=O)O)NC(=O)[C@H](CCC(=O)O)NC(=O)[C@@H](NC(=O)[C@@H](NC(=O)[C@@H](N)CCCCN)C(C)C)C(C)C)C(C)C)C(=O)N1CCC[C@H]1C(=O)N[C@@H](CCSC)C(=O)N[C@@H](Cc1ccccc1)C(=O)N[C@@H](CO)C(=O)N[C@@H](C)C(=O)N[C@@H](CC(C)C)C(=O)O [5-KF11–3]
- KF11 peptides yielded, activated over resting extracts: 2.8 fold
